## Library screen at single concentrations

Each number is a percent effect as filed. The controls that fix the scale are not given in the record; negative values are as filed. The entries come from a sample that favours strong results. Two or more numbers in one place are separate tests of the same structure; such repeats can differ widely. A dash means the value is not listed here; it may have been measured.

Mtb glucose medium: 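Growth of Mycobacterium tuberculosis over 3 days (7H9 medium with glucose and tyloxapol); the read-out is not stated. Compounds at 50 µM. Direction is inferred from retests: higher values go with more growth inhibition. About 69,000 compounds were tested under these conditions; 1.1% (about 760) showed 50% or more at least once.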
Mtb cholesterol medium: 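Phenotypic screen: M. tuberculosis growth, cholesterol and DPPC medium, 4 days; the read-out is not stated. Compounds at 50 µM. Direction is inferred from retests: higher values go with more growth inhibition. About 69,000 compounds were tested under these conditions; 0.54% (about 370) showed 50% or more at least once.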

{"structure": "Cc1nc2c(c(NCc3cc4ccccc4s3)n1)CCNCC2", "Mtb glucose medium": 62.52}
{"structure": "O=C(NCCc1c[nH]c2ccccc12)C1(n2cnnn2)CCCCC1", "Mtb glucose medium": 56.36, "Mtb cholesterol medium": 71.95}
{"structure": "O=C(NC1CCN(c2ncccn2)CC1)c1cc2c(cc1O)CCCC2", "Mtb glucose medium": "22.67 & 16.95"}
{"structure": "O=C(CSc1nncs1)N1CCN(Cc2ccc(Cl)s2)CC1", "Mtb glucose medium": "46.45 & 40.25", "Mtb cholesterol medium": 44.42}
{"structure": "COc1cccc(CN2CC[C@H](c3nnc(C)o3)C2)c1", "Mtb glucose medium": "-19.96 & -6.406", "Mtb cholesterol medium": -14.81}
{"structure": "Cc1cc(Cl)ccc1C(=O)C1CCCN(Cc2cnc(N(C)C)s2)C1", "stereo": "centres undefined", "Mtb glucose medium": "47.2 & 50.71"}
{"structure": "CC(=O)N1CCN(C(=O)c2ccc(-c3cccc(C)c3)[nH]c2=O)CC1", "Mtb glucose medium": "-8.653 & -11.65"}
{"structure": "CN(Cc1cscn1)C1CCCN(Cc2noc(C3CC3)n2)C1", "stereo": "centres undefined", "Mtb glucose medium": -2.278}
{"structure": "O=C(NCC1CCOC1)N1CCN(Cc2ccc3c(c2)CCO3)CC1", "stereo": "centres undefined", "Mtb glucose medium": 12.18, "Mtb cholesterol medium": -12.99}
{"structure": "CC(C)c1cc(CN2CCNCC2)no1", "Mtb glucose medium": 85.24}
{"structure": "COc1cccc(F)c1C(C)NC(=O)NCc1cnc(C)s1", "stereo": "centres undefined", "Mtb glucose medium": -2.569, "Mtb cholesterol medium": -8.189}
{"structure": "CC(=O)Nc1ccc(Cl)c(C(=O)N(C)C(C)c2ccon2)c1", "stereo": "centres undefined", "Mtb glucose medium": -13.05, "Mtb cholesterol medium": -26.42}
{"structure": "CNC(=O)C1CN(C(=O)c2cccnc2)CCN(S(C)(=O)=O)C1", "stereo": "centres undefined", "Mtb cholesterol medium": "12.42 & 2.344"}
{"structure": "O=C(Cc1ccc(-n2cccn2)cc1)N1CCCC(n2cccn2)C1", "stereo": "centres undefined", "Mtb cholesterol medium": 73.22}
{"structure": "CCn1nc(C)c2c1cnn2CCNS(=O)(=O)c1ccccc1", "Mtb glucose medium": -10.06}
{"structure": "Cc1cnccc1CNCc1ccc(OC23CCCN(CC2)C3)cc1", "stereo": "centres undefined", "Mtb glucose medium": 32.18, "Mtb cholesterol medium": 22.2}
{"structure": "CS(=O)(=O)N[C@@H]1CN(C(=O)c2cc3ccccc3s2)C[C@H]1O", "Mtb glucose medium": 74.34}
{"structure": "Cc1nc(N2CCCC2)nc2c1CCN(Cc1ccoc1)CC2.O=C(O)C(F)(F)F", "Mtb glucose medium": "76.26 & 65.22", "Mtb cholesterol medium": "74.21 & 75.25"}
{"structure": "N#Cc1ccsc1NC(=O)CN1CCn2c(nnc2C2CC2)C1", "Mtb glucose medium": 52.39}
{"structure": "c1csc(CCNc2nc(-c3ccncc3)nc3c2CCNCC3)c1", "Mtb glucose medium": "52.53 & 49.98"}
{"structure": "O=C(CCc1nccs1)N1CCN(c2ccccn2)CC1", "Mtb cholesterol medium": 23.25}
{"structure": "OC[C@H]1CN(Cc2c(Cl)cncc2Cl)C[C@H]1CN1CCOCC1", "Mtb cholesterol medium": "7.015 & -0.1499"}
{"structure": "COc1ccc(-c2noc(CN3CCN(c4cnccn4)CC3)n2)cc1", "Mtb cholesterol medium": 50.39}
{"structure": "CNS(=O)(=O)CC1CCCN1c1ccc(Br)cn1", "stereo": "centres undefined", "Mtb glucose medium": -36.9}
{"structure": "CCN1CCc2nc(N3CCOCC3)nc(NC(C)C)c2C1", "Mtb glucose medium": 9.417}
{"structure": "CC(C)COc1cncc(NC(CO)c2ccco2)n1", "stereo": "centres undefined", "Mtb glucose medium": -3.781}
{"structure": "Cc1cnn(C2CCCN(C(=O)Cc3ccc(-n4cccn4)cc3)C2)c1", "stereo": "centres undefined", "Mtb cholesterol medium": 2.191}
{"structure": "O=C(CCNc1ncccn1)NCc1ccc(Br)s1", "Mtb glucose medium": 7.005}
{"structure": "Cc1cccc(CN(Cc2ccccn2)S(=O)(=O)N(C)C)c1", "Mtb glucose medium": "2.633 & -33.69"}
{"structure": "Cc1cccc(OC2CCN(c3ccc(C#N)cn3)CC2)n1", "Mtb glucose medium": 23.41}
{"structure": "N#Cc1nccnc1N1CCC(Cc2ccccc2)C1", "stereo": "centres undefined", "Mtb cholesterol medium": 23.05}
{"structure": "N#Cc1cccc(OC23CCCN(CC2)C3)c1", "stereo": "centres undefined", "Mtb glucose medium": "-2.537 & -34.25", "Mtb cholesterol medium": -15.56}
{"structure": "Cc1cc(Cc2ccccc2C)cc(C2CCCNC2)n1", "stereo": "centres undefined", "Mtb glucose medium": 9.32}
{"structure": "Cc1cnn(CC2CN(Cc3nc4ccccc4s3)CCO2)c1", "stereo": "centres undefined", "Mtb cholesterol medium": 50.53}
{"structure": "Cc1cnn(C2CN(Cc3noc(-c4ccccc4)n3)C2)c1", "Mtb cholesterol medium": 33.32}
{"structure": "Cc1csc2ncc(-c3ccnc(N4CCCC4)n3)c(=O)n12", "Mtb glucose medium": 55.68}
{"structure": "Clc1ccc2nc(N3CCC(NCCCC4CCOC4)CC3)sc2c1", "stereo": "centres undefined", "Mtb glucose medium": 1.498, "Mtb cholesterol medium": -10.29}
{"structure": "O=C(O)C(F)(F)F.[H][C@@]12CN(Cc3ccco3)C[C@]1([H])C(=O)N(c1ccsc1)C2", "Mtb glucose medium": 64.39, "Mtb cholesterol medium": 41.31}
{"structure": "Cc1cc2c(N)nc(=O)n(CC(=O)Nc3cccc(Cl)c3)c2s1", "Mtb glucose medium": 51.59}
{"structure": "O=C(O)C(F)(F)F.O=C(O)C(F)(F)F.O=C1N(Cc2cccnc2)CCC12CCCN(c1ncccn1)C2", "stereo": "centres undefined", "Mtb cholesterol medium": 77.24}
{"structure": "COCCNC(=O)c1ccc(C)c(-n2cccc2)c1", "Mtb glucose medium": "4.762 & -6.375"}
{"structure": "FC(F)(F)COCCN1CCN(c2ccc3nncn3n2)CC1", "Mtb glucose medium": 22.48}
{"structure": "CN(C(=O)CC1=CCCCC1)C1CCCN(C2Cc3ccccc3C2)C1", "stereo": "centres undefined", "Mtb glucose medium": 65.74}
{"structure": "c1ccc2c(c1)CCN(c1nc(-c3ccncc3)nc3c1CCNC3)C2", "Mtb glucose medium": 63.42, "Mtb cholesterol medium": "50.62 & 57.73"}
{"structure": "Cc1ccc(NC(=O)c2coc(C)n2)c(C)c1", "Mtb glucose medium": 6.62}
{"structure": "CC(Oc1ccc2c(c1)OCO2)C(=O)Nc1ccon1", "stereo": "centres undefined", "Mtb glucose medium": 6.679, "Mtb cholesterol medium": -17.15}
{"structure": "Cc1cnc2c(S(=O)(=O)NC3CCS(=O)(=O)C3)cccc2c1", "stereo": "centres undefined", "Mtb glucose medium": 21.71}

The first 4 entries again:

structure,Mtb glucose medium,Mtb cholesterol medium
Cc1nc2c(c(NCc3cc4ccccc4s3)n1)CCNCC2,62.52%,-
O=C(NCCc1c[nH]c2ccccc12)C1(n2cnnn2)CCCCC1,56.36%,71.95%
O=C(NC1CCN(c2ncccn2)CC1)c1cc2c(cc1O)CCCC2,22.67% & 16.95%,-
O=C(CSc1nncs1)N1CCN(Cc2ccc(Cl)s2)CC1,46.45% & 40.25%,44.42%

The values are deposited in ChEMBL (CHEMBL3988442, “University of Dundee, Small-Polar-MMV Screening Library” (2021)).